Patent publication US20250218531A1

Target: SARS-COV-2 Omicron Spike RBD (SARS-CoV-2) (UniProt P0DTC2)
Experiment: SPR

Casirivimab (Fab)
Kd: 240 nM
